The structures appear in SMILES notation. The entries are a selection whose mix differs from that of the whole data set. Calls of active or inactive are those of the source. The rule behind the calls is not given here.

This test in a line: Mycobacterium tuberculosis H37Rv growth inhibition, putative kinase inhibitor library, confirmatory dose response (AID 2842).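 Note: bacteria incubated one week before Alamar blue readout; 0% = bacteria only wells and 100% = bacteria with high antibiotic.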 The note with it: M. tuberculosis H37Rv growth inhibition; active compounds read high.
As for `Cc1n[n+]2c([nH]c1=O)SCC(Br)C2c1ccccc1` (configuration not stated), the inhibition was inactive: -3.77%. The result for `CCOc1ccc(Nc2c([N+](=O)[O-])cc(C(F)(F)F)cc2[N+](=O)[O-])c([N+](=O)[O-])c1` reads inactive: -15.1%.

For the origin of these results see PubChem BioAssay AID2842 (Southern Research Institute, 2010).
